Test results: ChEMBL document CHEMBL4303097, “In vitro screening of a FDA approved chemical library reveals potential inhibitors of SARS-CoV-2 replication” (2020)

System: SARS-CoV-2
Experiment: Inhibition of cell viability relative to arbidol control (inhibition index > 1 indicates higher activity) measured by fluorescence (OD590nm) in Vero E6 cells infected with SARS-CoV-2 (strain BavPat1) at MOI 0.002 after 72hrs
Assay type: functional
Settings: Chlorocebus sabaeus; Vero C1008

## COLISTIN SULFATE
  Inhibition index: 0.0365
